Measured values from several laboratories, pooled; numbers as filed in NIAID ChemDB.

All rows: target-level tests; organism: HIV-1; target: Protease; measure: IC50

Two numbers with a dash give a range or band. ICn: concentration for n% inhibition. Conditions beyond the fields shown may differ between rows. Blank or dashed fields: not listed here.

SMILES | setting | strain or isolate | value
CC(=O)CC(c1ccccc1)c1c(O)c2ccc(C)c(C)c2oc1=O |  |  | 1.9 µM
Cc1ccccc1CNC(=O)[C@@H]1CSCN1C(=O)[C@@H](O)[C@H](Cc1ccccc1)NC(=O)C(C)C(C)C(=O)OC[C@@H]1O[C@H](n2cc(C)c(=O)[nH]c2=O)C[C@H]1N=[N+]=[N-] |  | IIIB | <5 µM
CC(C)CC(NC(=O)OCc1ccccc1)C(=O)N[C@@H](Cc1ccccc1)C(=O)C(F)(F)CCc1ccccc1 |  |  | 0.17 µM
Cc1cn([C@@H]2C[C@@H](N=[N+]=[N-])[C@H](COC(=O)C(C)(C)CC(=O)N[C@@H](Cc3ccccc3)[C@H](O)C(=O)N3CSC[C@H]3C(=O)NC(C)(C)C)O2)c(=O)[nH]c1=O |  | IIIB | >5 µM
CN(C)CCCNc1ccc(C(=O)CCCN2CCC(O)(c3ccc(Cl)cc3)CC2)cc1 |  |  | 210 µM
COc1ccc2nc(N/C(=N/[C@@H]3OC[C@@H](OC(C)=O)[C@H](OC(C)=O)[C@H]3OC(C)=O)NC(C)C)sc2c1 |  |  | 79.64 µg/mL
COC(=O)[C@@H](NC(=O)[C@@H](NC(=O)[C@H](Cc1ccccc1)CC(O)C[C@@H](Cc1ccccc1)C(=O)N[C@H](C(=O)N[C@H](C(=O)OC)C(C)C)C(C)C)C(C)C)C(C)C |  |  | 0.005 µM
CC(C)[C@H](NC(=O)OCc1ccccc1)C(=O)N[C@@H](Cc1ccccc1)[C@@H](O)[C@H](CO)[C@H](Cc1ccccc1)NC(=O)[C@@H](NC(=O)OCc1ccccc1)C(C)C |  |  | 0.037 µM
COc1ccc(C(CC(C)=O)c2c(O)c3cccc(C(C)C)c3oc2=O)cc1 |  |  | 25 µM
CC(C)(C)NC(=O)[C@H]1N(C(=O)[C@@H](O)[C@H](Cc2ccccc2)NC(=O)[C@H](CC(N)=O)NC(=O)OCc2ccccc2)CCC1(C)C |  |  | 0.024 µM
CC(C)(C)NC(=O)[C@@H]1C[C@@H]2CCCC[C@@H]2CN1C[C@@H](O)[C@H](Cc1ccccc1)NC(=O)[C@@H](NC(=O)c1ccccc1)C(C)(C)C |  |  | 0.011 µM
Cc1ccccc1CNC(=O)[C@H]1N(C(=O)[C@@H](O)[C@H](Cc2ccccc2)NC(=O)CC(C)(C)C(=O)O)CSC1(C)C |  | IIIB | <5 µM
CC(C)N(CC(=O)N(Cc1ccccc1)CC(O)CN(Cc1ccccc1)C(=O)CN(C(=O)CN(C(=O)CCC(=O)O)C(C)C)C(C)C)C(=O)CN(C(=O)CCC(=O)O)C(C)C |  |  | 10 µM
Cc1cccc(C)c1OCC(=O)N[C@H](CCN1CC[C@@H](SCc2cccnc2)C[C@H]1C(=O)NC(C)(C)C)Cc1ccccc1 |  |  | ≤0.0036 µM
Cc1c(O)cccc1C(=O)N[C@@H](Cc1ccc(-c2ccc3ccccc3c2)cc1)[C@H](O)C(=O)N1C[C@@H](Cl)C[C@H]1C(=O)NC(C)(C)C |  |  | 0.0001 µM
CCCCNc1cccc(C2(O)CCN(CCCC(=O)c3ccc(F)cc3)CC2)c1 |  |  | 170 µM
O=c1c(O[C@@H]2O[C@H](CO)[C@@H](O)[C@H](O)[C@H]2O)c(-c2ccc(O)cc2)oc2cc(O)cc(O)c12 |  |  | >200 µg/mL
CNC(=O)[C@H](Cc1ccccc1)[C@H](O)CN1C[C@H]2CCCC[C@H]2C[C@H]1C(=O)NC(C)(C)C |  |  | 1.2 µM
CSC[C@H](NC(=O)COc1cccc2ccccc12)C(=O)N[C@@H](Cc1ccccc1)[C@H](O)C(=O)N1CSC(C)(C)[C@H]1C(=O)NC(C)(C)C |  |  | 0.0027 µM
CC(C)(C)NC(=O)[C@@H]1C[C@H](Cl)CN1C(=O)[C@@H](O)[C@H](Cc1ccccc1)NC(=O)OC1CCNC1 |  |  | >1 µM
CCOP(=O)(C(Cc1ccccc1)NC(=O)[C@@H](NC(=O)OCc1ccccc1)C(C)C)C(Cc1ccccc1)NC(=O)[C@@H](NC(=O)OCc1ccccc1)C(C)C |  |  | >10 µM
CC(=O)N[C@H](CSc1ccc2ccccc2c1)C(=O)N[C@@H](Cc1ccccc1)[C@H](O)C(=O)N1CSC(C)(C)[C@H]1C(=O)NCc1ccccc1C |  |  | <0.001 µM
CC(C(=O)O)C(C)C(=O)N[C@@H](Cc1ccccc1)[C@H](O)C(=O)N1CSC(C)(C)[C@H]1C(=O)NC(C)(C)C |  | IIIB | <5 µM
C=C1[C@@H](C)[C@H]2[C@H](Cc3ccccc3)NC(=O)[C@]23[C@H](OC(C)=O)/C=C/[C@@H](C)C[C@@H](C)C/C=C/[C@H]3[C@@H]1O |  |  | 3 µM
CC(=O)N[C@H](C(=O)N[C@@H](Cc1ccccc1)[C@H](O)CN1C[C@H]2CCCC[C@H]2C[C@H]1C(=O)NC(C)(C)C)C(C)(C)S(C)(=O)=O |  |  | 0.0029 µM
CC(C)C(C)/C=C/[C@@H](C)[C@H]1CCC2C3=C[C@@H](O)[C@@]4(O)C[C@@H](O)CC[C@]4(C)C3CC[C@@]21C |  |  | 180 µM
Cc1cn([C@@H]2C[C@@H](N=[N+]=[N-])[C@H](COC(=O)C(C)C(C)C(=O)N[C@@H](Cc3ccccc3)[C@H](O)C(=O)N3CSC[C@H]3C(=O)NC(C)(C)C)O2)c(=O)[nH]c1=O |  | IIIB | >5 µM
CC(C)(C)NC(=O)[C@@H]1CCCN1C(=O)[C@@H](O)[C@H](Cc1ccccc1)NC(=O)[C@H](CC(N)=O)NC(=O)OCc1cccc2ccccc12 |  |  | 0.024 µM
Cc1cn([C@@H]2C[C@@H](N=[N+]=[N-])[C@H](COC(=O)C(C)C(C)C(=O)N[C@@H](Cc3ccccc3)[C@H](O)C(=O)N3CSC(C)(C)[C@H]3C(=O)NC(C)(C)C)O2)c(=O)[nH]c1=O |  | IIIB | <5 µM
COc1ccccc1C(Cc1c(O)c2ccccc2oc1=O)C(C)=O |  |  | 9.1 µM
O=C(/C=C/c1ccc(O)cc1)OC[C@H]1O[C@@H](Oc2c(-c3ccc(O)cc3)oc3cc(O)cc(O)c3c2=O)[C@H](O)[C@@H](O)[C@@H]1O |  |  | >200 µg/mL
COc1ccc(C(CC(C)=O)c2c(O)c3cc(C)ccc3oc2=O)cc1 |  |  | >200 µM
C[C@H](CC[C@H](O)C(C)(O)CO)[C@H]1CC[C@@]2(C)C3=CCC4C(C)(C)[C@@H](O)CC[C@]4(C)C3=CC[C@]12C |  |  | 230 µM
CC(=O)N[C@H](C(=O)N[C@@H](Cc1ccccc1)[C@H](O)CN1C[C@H]2CCCC[C@H]2C[C@H]1C(=O)NC(C)(C)C)C(C)(C)C |  |  | 0.0085 µM
CC(C)C[C@H](NC(=O)[C@@H](NC(=O)CCCCCCCCCCCCCCC(=O)N[C@@H](C[N+](=O)[O-])C(=O)N[C@@H](Cc1ccccc1)C(=O)O)C(C)O)C(=O)N[C@@H](Cc1ccccc1)C(N)=O |  |  | 3.6 µM
CC(=O)O[C@@H]1[C@@H](OC(C)=O)[C@H](OC(C)=O)CO[C@H]1NC(=NCc1ccccc1)Nc1nc2ccc(C)cc2s1 |  |  | 133 µg/mL
CC(C)[C@H](NC(=O)c1ccc2ccccc2n1)C(=O)N[C@H](CCN1CC[C@@H](SCc2ccccn2)C[C@H]1C(=O)NC(C)(C)C)Cc1ccccc1 |  |  | ≤0.0019 µM
CSC[C@H](NC(=O)COc1cccc2ccccc12)C(=O)N[C@@H](Cc1ccccc1)[C@H](O)C(=O)N1CSC[C@H]1C(=O)NC(C)(C)C |  |  | 0.0032 µM
CC(C)C[C@H](NC(=O)[C@H](Cc1ccc(N)cc1)NC(=O)CCCCCCCCCCCCCCC(=O)N[C@@H](CC(N)=O)C(=O)N[C@@H](Cc1ccccc1)C(=O)O)C(=O)N[C@@H](Cc1ccccc1)C(N)=O |  |  | 1.01 µM
C[C@H](CCC=C(CO)CO)[C@H]1CC[C@@]2(C)C3=CC[C@H]4C(C)(C)C(=O)CC[C@]4(C)C3=CC[C@]12C |  |  | 320 µM
NC(=O)C[C@H](NC(=O)OCc1ccccc1)C(=O)N[C@@H](Cc1ccccc1)[C@H](O)C(=O)N1CCC[C@H]1C(=O)NC1CCCCC1 |  |  | 0.572 µM
O=c1oc2ccccc2c(O)c1Cc1c(O)c2ccccc2oc1=O |  |  | >100 µM
CC(C)CC(SC1CCCC1)c1c(O)cc(-c2ccccc2)oc1=O |  |  | 0.055 µM
CC(C)(C)NC(=O)[C@@H]1C[C@@H]2CCCC[C@@H]2CN1C[C@@H](O)[C@@H](Cc1ccccc1)C(=O)NCc1ccccc1 |  |  | 0.087 µM
CC(C)C[C@H](NC(=O)[C@@H](NC(=O)CCCCCCCCCCCCCCC(=O)N[C@@H](CC(N)=O)C(=O)N[C@@H](Cc1ccc(O)cc1)C(=O)O)C(C)O)C(=O)N[C@@H](Cc1ccccc1)C(N)=O |  |  | 30 µM
O=C(CCCN1CCC(O)(c2ccc(NC3CCCCC3)cc2)CC1)c1ccc(F)cc1 |  |  | 120 µM
CC(C)(C)[C@H](NC(=O)OCc1ccccc1)C(=O)N[C@@H](Cc1ccccc1)C(=O)C(F)(F)CCc1ccccc1 |  |  | 0.0027 µM
CC(=O)O[C@@H]1[C@@H](OC(C)=O)[C@H](OC(C)=O)CO[C@H]1NC(=NCc1ccccc1)Nc1nc2c(C)cccc2s1 |  |  | 353 µg/mL
CC(=O)C(Cc1c(O)c2ccc(C)cc2oc1=O)c1ccccc1 |  |  | >200 µM
CC(C)(CO)CNC(=O)[C@H](Cc1ccccc1)[C@H](O)CN1C[C@H]2CCCC[C@H]2C[C@H]1C(=O)NC(C)(C)C |  |  | 0.49 µM
CC(C)C[C@H](NC(=O)[C@@H](NC(=O)CCCCCCCCCCCCCCC(=O)N[C@@H](CC(N)=O)C(=O)N[C@@H](Cc1ccc(C(=O)c2ccccc2)cc1)C(=O)O)C(C)O)C(=O)N[C@@H](Cc1ccccc1)C(N)=O |  |  | 2.6 µM
CC(=O)O[C@H]1CC(=O)OC(C)(C)[C@@H]2CC(=O)[C@]3(C)[C@H](CC[C@@]4(C)[C@H](c5ccoc5)OC(=O)[C@H]5O[C@]543)[C@@]12C |  |  | <20 µM
NC(=O)C[C@H](NC(=O)OCc1ccccc1)C(=O)N[C@@H](Cc1ccccc1)C(=O)C(F)(F)CCc1ccccc1 |  |  | 0.021 µM
CC(C)C[C@H](NC(=O)[C@@H](NC(=O)CCCCCCCCCCCCCCC(=O)N(O)[C@@H](CCC(N)=O)C(=O)N[C@@H](Cc1ccccc1)C(=O)O)C(C)O)C(=O)N[C@@H](Cc1ccccc1)C(N)=O |  |  | 4.07 µM
Cc1cccc(C)c1OCC(=O)N[C@H](CCN1CC[C@@H](Sc2ncccn2)C[C@H]1C(=O)NC(C)(C)C)Cc1ccccc1 |  |  | ≤0.0057 µM
COc1ccc(S(=O)(=O)N(CC(C)C)CC(O)C(NC(=O)O[C@H]2CCOC2)Sc2ccccc2)cc1 |  | BRU | 0.01–1 µM
Cc1cc(SC2=C(O)CC(CCc3ccccc3)(c3ccccc3)OC2=O)c(C(C)(C)C)cc1CO | pH 6.2 |  | 0.001 µM
CC(=O)CC(c1ccccc1)c1c(O)c2cc(C)cc(C)c2oc1=O |  |  | >200 µM
CC(C)(C)NC(=O)[C@@H]1C[C@@H]2CCCC[C@@H]2CN1C[C@@H](O)[C@H](Cc1ccccc1)NC(=O)[C@@H](NC(=O)c1ccccc1)C(C)(C)S(C)(=O)=O |  |  | 0.0019 µM
CCCCN(CCCC)c1cccc(C2(O)CCN(CCCC(=O)c3ccc(F)cc3)CC2)c1 |  |  | 75 µM
CC(=O)OC1C(=O)C2=C(C(=O)CC3C(C)(C)[C@@H](O)CC[C@]23C)[C@]2(C)[C@H](O)C[C@H]([C@H](C)CC(=O)CC(C)C(=O)O)[C@@]12C |  |  | 190 µM
CC(C)NC(=O)[C@@H]1CCCN1C(=O)[C@@H](O)[C@H](Cc1ccccc1)NC(=O)[C@H](CC(N)=O)NC(=O)OCc1ccccc1 |  |  | 0.32 µM
CC(C)[C@H](NC(=O)OCc1ccccc1)C(=O)N[C@@H](Cc1ccccc1)[C@@H](O)[C@H](CO)[C@H](Cc1ccccc1)NC(=O)[C@H](CC(C)(C)C)NC(=O)OCc1ccccc1 |  |  | 0.035 µM

The last 7 rows once more:

SMILES,setting,strain or isolate,value
Cc1cc(SC2=C(O)CC(CCc3ccccc3)(c3ccccc3)OC2=O)c(C(C)(C)C)cc1CO,pH 6.2,,0.001 µM
CC(=O)CC(c1ccccc1)c1c(O)c2cc(C)cc(C)c2oc1=O,,,>200 µM
CC(C)(C)NC(=O)[C@@H]1C[C@@H]2CCCC[C@@H]2CN1C[C@@H](O)[C@H](Cc1ccccc1)NC(=O)[C@@H](NC(=O)c1ccccc1)C(C)(C)S(C)(=O)=O,,,0.0019 µM
CCCCN(CCCC)c1cccc(C2(O)CCN(CCCC(=O)c3ccc(F)cc3)CC2)c1,,,75 µM
CC(=O)OC1C(=O)C2=C(C(=O)CC3C(C)(C)[C@@H](O)CC[C@]23C)[C@]2(C)[C@H](O)C[C@H]([C@H](C)CC(=O)CC(C)C(=O)O)[C@@]12C,,,190 µM
CC(C)NC(=O)[C@@H]1CCCN1C(=O)[C@@H](O)[C@H](Cc1ccccc1)NC(=O)[C@H](CC(N)=O)NC(=O)OCc1ccccc1,,,0.32 µM
CC(C)[C@H](NC(=O)OCc1ccccc1)C(=O)N[C@@H](Cc1ccccc1)[C@@H](O)[C@H](CO)[C@H](Cc1ccccc1)NC(=O)[C@H](CC(C)(C)C)NC(=O)OCc1ccccc1,,,0.035 µM